The list shows a part of the results, in another mix than the full data. Calls of active or inactive are those of the source.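 How the source made its calls: active means inhibition of at least 50% at 20 µM in any single replicate; inactive means the rest.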

The experiment concerns glucose-6-phosphate dehydrogenase-6-phosphogluconolactonase (PfGluPho), Plasmodium falciparum 3D7. Description: malaria parasite PfGluPho enzyme inhibition – biochemical, fluorescence intensity, single concentration, confirmation (AID 504753).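 Further: 0% = DMSO with substrate and 100% = DMSO lacking glucose-6-phosphate substrate.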 Particulars: recombinant PfGluPho, NADPH-diaphorase-resazurin fluorescence; at 20 µM; hits give high values. On the technique in general: The colour change of resazurin is a common sign of viable cells or microbes.
Turning to `O=[N+]([O-])c1cc([N+](=O)[O-])c(Nc2ccccn2)c([N+](=O)[O-])c1`, the inhibition (commonly how much of the control response was suppressed) is active: 78.8%.

(Values after PubChem BioAssay AID504753 (Sanford-Burnham Center for Chemical Genomics, 2011).)
